Results of unrelated studies side by side (data: NIAID ChemDB).

Shared fields: tests in culture; species: HIV-1; method: MTT / absorbance; measure: EC50

ECn is the concentration giving n% inhibition of infection, replication or growth.

{"smiles": "CCOC(=O)c1ccc(NC(=O)COc2cccnc2-c2cccc3ccccc23)c(Br)c1", "cell line": "MT-4", "strain or isolate": "IIIB", "value": ">149 µM"}
{"smiles": "COc1ccc(OC)c(CCNC(=S)Nc2ccc(Br)cn2)c1", "cell line": "MT-2", "strain or isolate": "IIIB", "value": "0.058 µM"}
{"smiles": "Cc1cn([C@H]2C[C@@H](OCP(=O)(O)O)CO2)c(=O)nc1N", "cell line": "MT-4", "strain or isolate": "IIIB", "value": ">410 µM"}
{"smiles": "COc1ccc(C(=O)Nc2sc3c(c2C(=O)Nc2ccccn2)CCCCC3)cc1OC", "cell line": "MT-4", "strain or isolate": "IIIB", "value": ">6.24 µM"}
{"smiles": "CC(=O)c1ccc(S(=O)(=O)N(CC(C)C)C[C@@H](O)[C@H](Cc2ccccc2)NC(=O)O[C@H]2CO[C@H]3OCC[C@H]32)cc1", "cell line": "MT-2", "strain or isolate": "LAI", "value": "0.002 µM"}
{"smiles": "Cc1cccc(Nc2ccccc2C(=O)Nc2ccc(-c3cc(-c4ccc(N(C)C)cc4)nc(=S)[nH]3)cc2)c1C", "cell line": "MT-4", "strain or isolate": "IIIB", "value": ">7.02 µM"}
{"smiles": "O=C(COc1cccnc1-c1cccc2ccccc12)Nc1cccnc1Cl", "cell line": "MT-4", "strain or isolate": "IIIB", "value": "10.8 µM"}
{"smiles": "Cc1cccc(Nc2ccccc2C(=O)Nc2ccc(C(=O)/C=C/c3ccc(N(C)C)cc3)cc2)c1C", "cell line": "MT-4", "strain or isolate": "IIIB", "value": ">2.06 µM"}
{"smiles": "Nc1nc(N)c2ncn([C@H]3C[C@@H](OCP(=O)(O)O)CO3)c2n1", "cell line": "MT-4", "strain or isolate": "IIIB", "value": "11.17 µM"}
{"smiles": "COC(=O)c1ccc(NC(=O)COc2cccnc2-c2cccc3ccccc23)cc1", "cell line": "MT-4", "strain or isolate": "IIIB", "value": ">64.9 µM"}
{"smiles": "CCCOC(=O)[C@H](Cc1ccccc1)NP(=O)(CO[C@H]1CO[C@@H](n2cnc3c(NC4CC4)nc(N)nc32)C1)N[C@@H](Cc1ccccc1)C(=O)OCCC", "cell line": "MT-4", "strain or isolate": "IIIB", "value": "3.63 µM"}
{"smiles": "Cc1cccc(Nc2ccccc2C(=O)Nc2ccc(C(=O)/C=C/c3ccc(Br)cc3)cc2)c1C", "cell line": "MT-4", "strain or isolate": "IIIB", "value": ">12.68 µM"}
{"smiles": "NS(=O)(=O)c1ccc(NC(=O)COc2cccnc2-c2cccc3ccccc23)cc1", "cell line": "MT-4", "strain or isolate": "RES056", "value": ">143 µM"}
{"smiles": "Cc1cccc(Nc2ccccc2C(=O)Nc2ccc(C(=O)/C=C/c3ccccc3)cc2)c1C", "cell line": "MT-4", "strain or isolate": "IIIB", "value": ">125 µM"}
{"smiles": "Cc1ccc(NC(=O)COc2cccnc2-c2cccc3ccccc23)c([N+](=O)[O-])c1", "cell line": "MT-4", "strain or isolate": "RES056", "value": ">19.3 µM"}
{"smiles": "CC(C)CN(C[C@@H](O)[C@H](Cc1ccccc1)NC(=O)O[C@H]1CO[C@H]2OCC[C@H]21)S(=O)(=O)c1ccc(-c2cnc([C@@H](C)O)o2)cc1", "cell line": "MT-2", "strain or isolate": "LAI", "value": "0.0032 µM"}

Lines come from different laboratories, so protocols vary.